Results of unrelated studies side by side (data: NIAID ChemDB).

All rows: tests in culture; organism: Candida albicans

Rows are shuffled and stem from different studies. MIC50, MIC90 and the like: level of inhibition, or share of isolates inhibited. ECn is the concentration giving n% inhibition of infection, replication or growth. Blank or dashed fields: not listed here. Inhibition is in % at the dose shown (toxicity tests: loss of growth or viability).

compound,strain,changes,cells,read by,read-out,tested at,result
C[C@@H](N1CCN(Cc2cn(Cc3ccc(F)cc3)c3c(F)cccc23)CC1)[C@](O)(Cn1cncn1)c1ccc(F)cc1F,ATCC 90028,-,-,resazurin,MIC80,-,2 µg/mL
CCCCCOc1ccc(-c2ccc(-c3ccc(C(=O)N[C@H]4C[C@@H](O)[C@@H](O)NC(=O)[C@@H]5[C@@H](O)[C@@H](C)CN5C(=O)[C@H]([C@H](C)O)NC(=O)[C@H]([C@H](O)[C@@H](O)c5ccc(O)cc5)NC(=O)[C@@H]5C[C@@H](O)CN5C(=O)[C@H]([C@H](C)O)NC4=O)cc3)cc2)cc1,10 strains (fluconazole-resistant),-,-,-,MFC90,-,1 µg/mL
CCCCCCCCCCCC[N+](C)(C)CSCCCCC,ATCC 10231,-,-,-,MBC,-,137 µM
C[C@@H](N1CCN(Cc2cn(Cc3ccc(C(F)(F)F)cc3)c3ccccc23)CC1)[C@](O)(Cn1cncn1)c1ccc(F)cc1F,ATCC 36082,-,-,resazurin,MIC80,-,0.125 µg/mL
C[C@H]1[C@H](O)[C@@H](C)/C=C/C=C/C=C/C=C/C=C/C=C/C=C/[C@H](O[C@@H]2O[C@H](C)[C@@H](O)[C@H](N)[C@@H]2O)C[C@@H]2O[C@](O)(C[C@@H](O)C[C@@H](O)CC[C@H](O)[C@@H](O)C[C@@H](O)CC(=O)O[C@H]1C)C[C@H](O)[C@H]2C(=O)O,ATCC 90028,efg1 (EFG1),-,broth dilution,inhibition,1 µg/mL,100%
Cc1ccc(-c2c3c(N)c4c(nc3nc3c2c(C)nn3-c2ccccc2)CCCCC4)cc1,CCC 125,-,-,broth dilution / absorbance,MIC80,-,62.5 µg/mL
CCCCCCCCCCCC[N+](C)(C)COCC(C)C,ATCC 10231,-,-,-,MBC,-,298 µM
CCCCCCCCCCCC(=O)c1c(O)cc(O)c([C@@H]2C[C@@H](c3ccc(O)cc3)Oc3cc(O)ccc32)c1O,-,-,VERO,colony count,EC50,-,8.8 µg/mL
Cc1cc(-c2nn(C)c(C)c2N=O)no1,-,-,-,-,MFC,-,>200 µM
Cc1ccc(N=Nc2ccc(O)c(C[N+](C)(C)COCCC3CCCCC3)c2)cc1,-,-,-,-,MBC,-,280 µM
Cc1ccc(C(C)C)c(O)c1,M1,-,-,-,MLC,-,0.32 µg/mL
OC(CN1CCN(c2ccc(OCc3ccncc3)cc2)CC1)(Cn1cncn1)c1ccc(F)cc1F,ATCC64550,-,-,-,MIC80,-,≤0.031 µg/mL
C[C@@H](N1CCN(Cc2cn(Cc3ccc(Cl)cc3)c3c(F)cccc23)CC1)[C@](O)(Cn1cncn1)c1ccc(F)cc1F,ATCC 90028,-,-,resazurin,MIC80,-,0.125 µg/mL
Cc1ccc(-c2c3c(N)c4c(nc3nc3c2c(C)nn3-c2ccccc2)CCCC4)cc1,CCC 127,-,-,broth dilution / absorbance,MIC100,-,31.2 µg/mL
C=CCc1ccc(O)c(OC)c1,2883,-,-,turbidity,MIC90,-,500 µg/mL
Cc1c(C(=O)N(C)C)cc(-c2ccc(Cl)cc2)n1-c1ccc(Cl)cc1,20 strains,-,-,-,Mean MIC,-,>200 µg/mL
CCCCOC[N+](C)(C)Cc1cc(N=Nc2ccc(Cl)cc2)ccc1O,-,-,-,-,MBC,-,608 µM
Cc1ccc(C(C)C)cc1O,M1,-,-,-,MLC,-,0.32 µg/mL
Cc1cc(CN2CCN(C)CC2)c(C)n1-c1ccccc1,20 strains,-,-,-,Mean MIC,-,>200 µg/mL
CCCCCCCCCCOC[N+](C)(C)CCCCCCCC,ATCC 10231,-,-,-,MBC,-,137 µM
C[C@@H](N1CCN(Cc2cn(Cc3ccc(Cl)cc3)c3c(Cl)cccc23)CC1)[C@](O)(Cn1cncn1)c1ccc(F)cc1F,ATCC 90028,-,-,resazurin,MIC80,-,0.125 µg/mL
Cc1ccc(-c2c3c(N)c4c(nc3nc3c2c(C)nn3-c2ccccc2)CCC4)cc1,CCC 126,-,-,broth dilution / absorbance,MIC80,-,62.5 µg/mL
C[N+](C)(COCC1CCCCC1)Cc1cc(N=Nc2ccc(Cl)cc2)ccc1O,-,-,-,-,MBC,-,137 µM
C[C@@H](N1CCN(Cc2cn(Cc3cccc(C(F)(F)F)c3)c3c(F)cccc23)CC1)[C@](O)(Cn1cncn1)c1ccc(F)cc1F,ATCC 64548,-,-,resazurin,MIC80,-,0.125 µg/mL
O=C(CCCCCCCCc1ccccc1)c1c(O)cc(O)c([C@@H]2C[C@H](c3ccc(O)cc3)Oc3cc(O)ccc32)c1O.O=C(CCCCCCCCc1ccccc1)c1c(O)cc(O)c([C@@H]2C[C@H](c3ccc(O)cc3)Oc3cc(O)ccc32)c1O,-,-,VERO,colony count,EC50,-,5.9 µg/mL
CCCCCCCCCCCC[N+](C)(C)COCCC(C)CCCC(C)C,ATCC 10231,-,-,-,MBC,-,1190 µM
Oc1ccc2c(c1)CCc1ccc(cc1)Oc1cc(ccc1O)CCc1cccc(O)c1-2,SC5314,-,-,broth dilution,MIC80,-,16 µg/mL
C[C@@H](N1CCN(Cc2cn(Cc3ccc(F)cc3F)c3cc(N=[N+]=[N-])ccc23)CC1)[C@](O)(Cn1cncn1)c1ccc(F)cc1F,ATCC 36082,-,-,resazurin,MIC80,-,0.125 µg/mL
C[C@@H](c1ncncc1F)[C@](O)(Cn1cncn1)c1ccc(F)cc1F,ATCC 36082,-,-,-,MIC80,-,0.03 µg/mL
C[C@@H](N1CCN(Cc2cn(Cc3ccc(F)cc3F)c3c(F)cccc23)CC1)[C@](O)(Cn1cncn1)c1ccc(F)cc1F,ATCC 64548,-,-,resazurin,MIC80,-,0.5 µg/mL
Cc1c(CN2CCN(C)CC2)cc(-c2ccc(Cl)cc2)n1-c1ccccc1,20 strains,-,-,-,Mean MIC,-,64.4 µg/mL
C[N+](C)(COC1CCCC1)Cc1cc(N=Nc2ccc(Cl)cc2)ccc1O,-,-,-,-,MBC,-,146 µM
Cc1ccc(-c2ccccc2)n1-c1ccc(Cl)cc1Cl,20 strains,-,-,-,Mean MIC,-,>200 µg/mL
Cc1cc(-c2cc(C)on2)n(CCO)n1,-,-,-,-,MFC,-,>200 µM
Cc1c(CN2CCN(C)CC2)cc(-c2ccc(Cl)cc2)n1-c1ccc(F)cc1,20 strains,-,-,-,Mean MIC,-,45.3 µg/mL
OC(Cn1cncn1)(Cn1cncn1)c1ccc(F)cc1F,TIMM1768 (azole-susceptible),-,-,-,MIC80,-,0.25 µg/mL
CCn1nc(-c2cc(C)on2)c(N=O)c1C,-,-,-,-,MFC,-,66 µM
CCCCCCCCCCCC[N+](C)(C)COC1CCCCCC1,ATCC 10231,-,-,-,MBC,-,26.6 µM
CCCCCCCCOC[N+](C)(C)Cc1cc(N=Nc2ccc(Cl)cc2)ccc1O,-,-,-,-,MBC,-,534 µM
CCCCCCCCCCCC[N+](C)(C)COC(C)C,ATCC 10231,-,-,-,MBC,-,311 µM
CC(=O)OC[C@H]1O[C@@H](O[C@@H]2[C@@H](N=[N+]=[N-])[C@H](O)[C@H](O)[C@H]3OC(C)(C)O[C@H]32)[C@H](OC(C)=O)[C@@H](OC(C)=O)[C@H]1OC(C)=O,ATCC 10231,-,-,broth dilution / turbidity,inhibition,250 µg/mL,77.96%
COc1ccc(-c2c3c(N)c4c(nc3nc3c2c(C)nn3-c2ccccc2)CCCC4)cc1,ATCC 10231,-,-,broth dilution / absorbance,MIC100,-,250 µg/mL
CCn1nc(-c2cc(C)on2)cc1C,-,-,-,-,MFC,-,>200 µM
Cc1ccc(-c2ccc(Cl)cc2)n1-c1ccc(F)cc1,20 strains,-,-,-,Mean MIC,-,>200 µg/mL
Cc1cc(-c2cc(C)n(C)n2)no1,-,-,-,-,MFC,-,>200 µM
CCCCCCCCCCCC[N+](C)(C)COC1CCCC1,ATCC 10231,-,-,-,MBC,-,144 µM

Repeating the final 2 entries:

| compound | strain | changes | cells | read by | read-out | tested at | result |
|---|---|---|---|---|---|---|---|
| Cc1cc(-c2cc(C)n(C)n2)no1 | - | - | - | - | MFC | - | >200 µM |
| CCCCCCCCCCCC[N+](C)(C)COC1CCCC1 | ATCC 10231 | - | - | - | MBC | - | 144 µM |